US20220356230A1

What was measured:
[1] = molecular target: Bt-SARS-CoV-2 Spike Protein (RBD)([…]).mFc (SARS-CoV-2); assay: Luminex bead assay, antibody supernatant, biotinylated antigen on microspheres; details: remark: other sources report otherwise
[2] = molecular target: SARS-CoV-2 Spike Protein (RBD)([…]).mmH (SARS-CoV-2); details: remark: other sources report otherwise

Row | Binder | Binding signal (MFI) [1] | Binding signal (MFI) [2]
1 | mAb10915 (antibody) heavy: EVQLVESGGGLVQPGGSLRLSCAASGFTVSSNYMNWVRQAPGKGLEWVSVIYSGGSTFYADSVKGRFTISRHNSKNTLYLQMNSLRPEDTAVYYCARDLGGYFDYWGQGTLVTVSSASTKGPSVFPLAPSSKSTSGGTAALGCLVKDYFPEPVTVSWNSGALTSGVHTFPAVLQSSGLYSLSSVVTVPSSSLGTQTYICNVNHKPSNTKVDKKV[human IgG1 Fc left out here] light: [about 100 residues left out here][about 120 residues left out here] | 20100 MFI | 31800 MFI and 30300 MFI
2 | mAb10934 (antibody) heavy: EVQLVESGGGLVKPGGSLRLSCAASGITFSNAWMSWVRQAPGKGLEWVGRIKSKTDGGTTDYAAPVKGRFTISRDDSKNTLYLQMNSLKTEDTAVYYCTTARWDWYFDLWGRGTLVTVSSASTKGPSVFPLAPSSKSTSGGTAALGCLVKDYFPEPVTVSWNSGALTSGVHTFPAVLQSSGLYSLSSVVTVPSSSLGTQTYICNVNHKPSNTKVDKKV[human IgG1 Fc left out here] light: DIQMTQSPSSLSASVGDRVTITCQASQDIWNYINWYQQKPGKAPKLLIYDASNLKTGVPSRFSGSGSGTDFTFTISSLQPEDIATYYCQQHDDLPPTFGQGTKVEIKRTVAAPSVFIFPPSDEQLKSGTASVVCLLNNFYPREAKVQWKVDNALQSGNSQESVTEQDSKDSTYSLSSTLTLSKADYEKHKVYACEVTHQGLSSPVTKSFNRGEC |  | 33800 MFI and 32600 MFI
3 | mAb10921 (antibody) heavy: EVQLVESGGGLVQPGGSLRLSCAASGITVSSNYMSWVRQAPGKGLEWVSVIYSGGSTFYADSVKGRFTISRHNSKNTLYLQMNSLRAEDTAVYYCARERNFDAFDIWGQGTMVTVSSASTKGPSVFPLAPSSKSTSGGTAALGCLVKDYFPEPVTVSWNSGALTSGVHTFPAVLQSSGLYSLSSVVTVPSSSLGTQTYICNVNHKPSNTKVDKKV[human IgG1 Fc left out here] light: DIQMTQSPSSVSASVGDRVTITCRASQGISSWLAWYQQKPGKAPKLLIYAASSLQSGVPSRFSGSGSGTDFTLTISSLQPEDFATYYCQQANSFPLFTFGPGTKVDIKRTVAAPSVFIFPPSDEQLKSGTASVVCLLNNFYPREAKVQWKVDNALQSGNSQESVTEQDSKDSTYSLSSTLTLSKADYEKHKVYACEVTHQGLSSPVTKSFNRGEC | 11300 MFI | 25000 MFI and 23600 MFI
4 | mAb10938 (antibody) heavy: EVQLVESGGGLVQPGGSLRLSCAVSGFTVSSNYMSWVRQAPGKGLEWVSLIYSGGSTFYADSVKGRFTISRHNSKNTLYLQMNSLRAEDTAVYYCAREGGYSYDYNYWGQGTLVTVSSASTKGPSVFPLAPSSKSTSGGTAALGCLVKDYFPEPVTVSWNSGALTSGVHTFPAVLQSSGLYSLSSVVTVPSSSLGTQTYICNVNHKPSNTKVDKKV[human IgG1 Fc left out here] light: DIQMTQSPSSLSASVGDRVTITCQASQDIRNYLNWYQQKPGKAPKLLIYDASNLETGVPSRFSGIGSGTDFTFTISSLQPEDIATYYCQQYDNLPITFGQGTRLEIKRTVAAPSVFIFPPSDEQLKSGTASVVCLLNNFYPREAKVQWKVDNALQSGNSQESVTEQDSKDSTYSLSSTLTLSKADYEKHKVYACEVTHQGLSSPVTKSFNRGEC | 17200 MFI | 29400 MFI and 27100 MFI
5 | mAb10982 (antibody) heavy: EVQLVESGGGLVQPGGSLRLSCAASGLTVSSNYMSWVRQAPGKGLEWVSVIYSGGTTYYADSVKGRFTISRHNSKNTLSLQMNSLRAEDTAVYYCARGEGANYYGMDVWGQGTTVTVSSASTKGPSVFPLAPSSKSTSGGTAALGCLVKDYFPEPVTVSWNSGALTSGVHTFPAVLQSSGLYSLSSVVTVPSSSLGTQTYICNVNHKPSNTKVDKKV[human IgG1 Fc left out here] light: QSVLTQPPSVSGAPGQRVTISCTGSSSNIGTGYDVHWYQQLPGTAPKLLIYGNSNRPSGVPDRFSGSKSGTSASLAITGLQAEDEADYYCQSYDSSLSGYVVFGGGTKLTVLGQPKAAPSVTLFPPSSEELQANKATLVCLISDFYPGAVTVAWKADSSPVKAGVETTTPSKQSNNKYAASSYLSLTPEQWKSHRSYSCQVTHEGSTVEKTVAPTECS | 12300 MFI | 24300 MFI and 22200 MFI

Several values for one entry are separate records, joined by “and”; a condition that tells them apart may be missing. Equal entries are not always repeated.
